We go through 48 compounds from PubChem BioAssay AID588726 (The Scripps Research Institute Molecular Screening Center, 2011).

Chains of the proteins cited; added tags and fusions are not shown. Lines headed by an entry give the natural chain unless they say otherwise; changes in a name come on top.
UniProt P9WQA3: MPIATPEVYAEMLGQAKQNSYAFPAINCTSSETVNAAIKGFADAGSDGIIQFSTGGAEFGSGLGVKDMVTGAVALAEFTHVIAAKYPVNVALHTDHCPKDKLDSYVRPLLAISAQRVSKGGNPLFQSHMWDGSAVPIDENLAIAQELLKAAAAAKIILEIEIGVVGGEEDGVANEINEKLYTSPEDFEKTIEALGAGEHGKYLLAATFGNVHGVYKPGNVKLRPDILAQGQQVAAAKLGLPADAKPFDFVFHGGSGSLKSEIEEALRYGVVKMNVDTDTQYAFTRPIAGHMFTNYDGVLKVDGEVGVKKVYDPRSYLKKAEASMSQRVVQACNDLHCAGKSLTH

Each structure is given as a SMILES string. The entries are a selection whose mix differs from that of the whole data set. Activity calls are given as the source filed them. No stated cut-off is given here; in the data, active means inhibition above about 27%; inactive means the rest.

This assay concerns the target Fructose-bisphosphate aldolase (Mycobacterium tuberculosis (strain ATCC 25618 / H37Rv)) (UniProt P9WQA3). The assay is described as follows: M. tuberculosis aldolase activity blockers – biochemical, fluorescence, strain H37Rv, primary screen (AID 588726).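 Further: 0% = vehicle and 100% = reference inhibitor.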 The following applies: purified M. tuberculosis FBA, fluorescence read-out; at 1 µM; active compounds read high.
On to `C[C@H]1OP(=O)(Oc2ccccc2)C[C@@H]2O[C@@H]21` (stereo partly drawn), for which the inhibition (as a rule, the change of the read-out against control, counted positive when it falls) is inactive: -0.51%.

For the compound `C[C@@H]1C=CCP(=O)(Oc2ccccc2)O1` (stereo partly drawn), the inhibition is inactive: -1.07%. Consider `CC(=O)Nc1ccc([As](=O)(O)O)c(O)c1`, for which the inhibition was inactive: -6.27%. On to `CC(=O)Nc1ccc(Oc2c([N+](=O)[O-])cc([N+](=O)[O-])cc2[N+](=O)[O-])cc1`, for which the inhibition is inactive: -13.2%.

For `NC(=O)c1cc([N+](=O)[O-])cc([N+](=O)[O-])c1N`, the inhibition was inactive: -4.63%. As for `CN(C(=O)Cc1ccc(Cl)c(Cl)c1)[C@H]1CCCC[C@H]1N1CCCC1`, the inhibition was inactive: -2.41%.

As for `Cc1ccc(N/C(=N/P(=O)(N2CCOCC2)N2CCOCC2)N2CCOCC2)cc1`, the inhibition was inactive: 3.39%. With `COc1ccccc1OP(=O)(Nc1ccc(C)cn1)Oc1ccccc1OC`, the inhibition is inactive: 1.22%. `Cc1ccc(OP(=O)(Nc2nccs2)Oc2ccc(C)cc2)cc1`: the inhibition is inactive: 0.65%.

Consider `CN1CCCC(OC(=O)C(c2ccccc2)c2ccccc2)C1` (stereo not drawn), for which the inhibition is inactive: -4.67%. The value for `Clc1ccc(Cl)c(NC2=NCC(CBr)S2)c1` (stereo not drawn) was inactive: -2.9%; that for `Nc1cc(N)c2nonc2c1[N+](=O)[O-]` was inactive: 0.66%. Consider `CC(C)CC(=O)NC(Sc1ccc(Cl)cc1)C(Cl)(Cl)Cl` (stereo not drawn), for which the inhibition is inactive: 1.53%. Consider `Oc1ccccc1CNc1ccccn1`, for which the inhibition was inactive: -1.02%. With `O=C(NC(Sc1ccncn1)C(Cl)(Cl)Cl)c1ccccc1` (stereo not drawn), the inhibition is inactive: 2.51%. In the case of `O=[N+]([O-])C1C(O)C(O)C([N+](=O)[O-])C(O)C1O` (stereo not drawn), the inhibition is inactive: 1.21%.

Turning to `CC(=O)Nc1ccc([As](=O)(O)O)cc1`, the inhibition was inactive: 3.41%. Take `O=C(O)c1ccccc1[As](=O)(O)O`: the inhibition was inactive: 0.74%.

With `CCCC1OP(N)(=O)OCC1CC` (stereo not drawn), the inhibition was inactive: -0.05%. With `O=P(Nc1nc2ccc(Cl)cc2s1)(c1ccccc1)c1ccccc1` the figure was inactive: 0.19%. On to `CN(C)P(=O)(N(C)C)n1c(Nc2ccccc2)nnc1-c1ccccc1`, for which the inhibition is inactive: -1.74%. As to `Cc1cc(SC(NC(=O)c2ccc(F)cc2)C(Cl)(Cl)Cl)ncn1` (stereo not drawn), the inhibition was inactive: 0.1%. Turning to `CCOP(=O)(Nc1ccccc1)OCC`, the inhibition was inactive: -2.82%. With `Cc1ccc(NP(=O)(Oc2ccccc2F)Oc2ccccc2F)nc1`, the inhibition was inactive: 3%.

`CN(C(=O)Cc1ccc(Cl)c(Cl)c1)[C@H]1CCCC[C@@H]1N1CCCC1`: the inhibition is inactive: -2.03%. For `CCN(N=Nc1nonc1N)c1nonc1N`, the inhibition is inactive: 0.71%.

Regarding `Nc1cccc2ccc([As](=O)(O)O)cc12`, the inhibition was inactive: 22.6%. The value for `O=P1(N(CCCl)CCCl)OCCCS1` (stereo not drawn) was inactive: 1.39%; that for `O=C(Nc1cc([As](=O)(O)O)ccc1O)c1ccccc1` was inactive: 2.81%. With `CC(C)(C)C(=O)NC(Sc1ccncn1)C(Cl)(Cl)Cl` (stereo not drawn), the inhibition was inactive: 0.45%. Take `O=[N+]([O-])c1ncn(CCn2ncnc2[N+](=O)[O-])n1`: the inhibition was inactive: 8.62%. With `COC(=O)C1(C)COP(=O)(Nc2ccccc2)OC1` (stereo not drawn) the figure was inactive: 0.79%. As to `O=[N+]([O-])c1cccc(NC2=NCC(CBr)S2)c1` (stereo not drawn), the inhibition is inactive: 4.6%.

Consider `O=C(O)CNc1ccc([As](=O)(O)O)cc1`, for which the inhibition is inactive: 2.18%. With `COc1ccc(C2=NCC(CBr)S2)cc1` (stereo not drawn), the inhibition is inactive: -3.27%.

`O=[N+]([O-])c1cccc2n[nH]nc12`: the inhibition was inactive: -4.41%. Take `CC(=O)N1C2C3N(C(C)=O)C1C1N(C(C)=O)C(C(N1C(C)=O)N3C(C)=O)N2C(C)=O`: the inhibition is inactive: 0.37%. The value for `Cc1ccc(NP(=O)(Oc2ccccc2)Oc2ccccc2)nc1` was inactive: 16.5%; that for `CCc1nc2c(n1)c1c(non1O)c1c2no[n+]1[O-]` was inactive: 0.53%; that for `O=[N+]([O-])c1cc([N+](=O)[O-])c(CCNc2ccccc2)c([N+](=O)[O-])c1` was inactive: -2.5%. Consider `Nc1ccc([As](=O)(O)c2ccc(N)cc2)cc1`, for which the inhibition is inactive: -1.9%. With `C[N+]1=C2C=CC=CC=C2SC12C([N+](=O)[O-])=CC([N+](=O)[O-])=C[C-]2[N+](=O)[O-]` (stereo not drawn), the inhibition was inactive: -0.98%.

Regarding `CCN(/C(=N/P(=O)(N1CCOCC1)N1CCOCC1)N1CCOCC1)c1ccc(OC)cc1`, the inhibition is inactive: -1.09%. The value for `CC(C)c1nc(Nc2ccccc2)n(P(=O)(N(C)C)N(C)C)n1` was inactive: 0.38%; that for `CC(C)=N/N=C(\N)N[N+](=O)[O-]` was inactive: 3.25%. As to `CN(C)C(=O)OCCc1n(C)cc[n+]1C`, the inhibition was inactive: -0.73%. With `CC1CCN(C(=O)Oc2c(Cl)cc(Cl)c3cccnc23)CC1` the figure was inactive: 1.46%; with `c1cc(-c2nn[nH]n2)ccc1-c1nn[nH]n1`, inactive: -0.84%.
